Test results reported in US20250333484A1.

B1: mAb114 (parental IgG) (protein)
chain 1: EVQLVESGGGLIQPGGSLRLSCAASGFALRMYDMHWVRQTIDKRLEWVSAVGPSGDTYYADSVKGRFAVSRENAKNSLSLQMNSLTAGDTAIYYCVRSDRGVAGLFDSWGQGILVTVSSAS
chain 2: DIQMTQSPSSLSASVGDRITITCRASQAFDNYVAWYQQRPGKVPKLLISAASALHAGVPSRFSGSGSGTHFTLTISSLQPEDVATYYCQNYNSAPLTFGGGTKVEIKSSAS
B2: mAbA09 (S1-4-A09, parental IgG) (protein)
chain 1: QVQLQESGPGLVKPSETLSLTCVVSGGILSSFYWNWIRQPPGKGLEWIGNIYYSGSPNYNASFQSRVAISVDTSKNQISLNLKSVTAADTAMYYCVRASRAYLWGSYRPTALDLWGQGSLVTVSS
chain 2: SYELTQPPSVSVSPGQTATITCSGDKLGDKYTSWFQQRPGQSPLLVIYQDNKRPSGLPARFSGSNSGNTATLTISGTQAMDEADYLCQVWDSGAVFGGGTKLTVL

Biological target: EBOV GP (Mayinga variant U31033) on pseudotyped lentivirus particles (Ebola virus, Mayinga variant), Q05320
Assay: cell-based or functional assay

| Binder | neutralization of pseudotyped lentivirus particles (luciferase, HEK293T cells) [mol/L] |
| --- | --- |
| B1 | 6.67e-08 |
| B2 | 6.67e-08 |
